Data as given in PubChem BioAssay AID624099 (ICCB-Longwood, 2012).

Screen: 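Knock-downs relieving repression by E2 of an HPV18 LCR luciferase reporter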 (primary screen)
Cells: human C33A cervical carcinoma cells (HPV-negative) stably expressing BPV1 E2 and an HPV18 LCR luciferase reporter
Reagents: siRNA pool against human genes, 40 nM
Timing: 72 h
Detection: 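Per-well luciferase luminescence, z-scored on each plate against the plate mean and SD with control wells left out, then averaged across three replicate plates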
Scale: mean z-score and z-score: higher = stronger reporter signal, weaker E2 silencing
Rule for the call: 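Hit if mean z-score reaches 2 and two or more of three replicate z-scores also reach 2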
The whole screen tested about 21,000 reagents; this is a part drawn at random. 497 of them (2.4%) were called active. 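Higher z means weaker E2 silencing; only reporter increases were scored, and knock-downs that hurt cell survival may mask genuine repressor factors.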 The numbers tell different reagents against one gene apart. Reagent sequences are not shown.

no.	Gene	reagent no.	mean z-score	z-score, replicate A	z-score, replicate B	z-score, replicate C	Call
1	LOC389831	1	0.85	0.82	0.95	0.8	inactive
2	CA7	1	-0.92	-0.85	-1.17	-0.75	inactive
3	KLKB1	1	-0.19	0.15	0.22	-0.95	inactive
4	ARSI	1	0.18	-0.15	0.19	0.49	inactive
5	LINC00410	1	1.99	2.75	1.64	1.58	inactive
6	FIGLA	1	-0.26	-0.01	-0.02	-0.75	inactive
7	LRRC40	1	-0.14	0.17	-0.14	-0.46	inactive
8	MLXIPL	1	-0.57	-0.57	-0.78	-0.38	inactive
9	LINC02003	1	-1.31	-0.48	-1.75	-1.7	inactive
10	TMEM43	1	1.97	1.79	1.9	2.21	inactive
11	MBNL1	1	-0.86	-0.99	-0.85	-0.75	inactive
12	ACOT6	1	-0.03	-0.08	0.21	-0.21	inactive
13	YIPF3	1	-0.68	-0.94	-0.56	-0.54	inactive
14	TOMM20	1	0.51	0.74	0.34	0.45	inactive
15	SUMF1	1	2.42	2.2	2.62	2.44	active
16	MAT2A	1	-0.75	-0.96	-0.7	-0.6	inactive
17	LOC388508 (retired record)	1	-0.38	-0.27	-0.69	-0.19	inactive
18	F8A1	1	0.07	-0.04	0.04	0.2	inactive
19	CTBP2	1	1.1	1.08	0.82	1.41	inactive
20	C8orf74	1	-0.99	-0.79	-1.18	-0.99	inactive
21	TRHDE-AS1	1	0.34	0.13	0.51	0.4	inactive
22	OR5H2	1	-0.63	-0.98	-0.34	-0.58	inactive
23	RLBP1	1	-1.11	-1.01	-1.24	-1.08	inactive
24	AMDHD1	1	0.92	0.68	1.24	0.82	inactive
25	COPG1	1	-1.18	-1.51	-1.01	-1.01	inactive
26	SF3A2	1	-1.24	-1.18	-1.15	-1.4	inactive
27	MYCBP	1	0.59	0.55	0.61	0.61	inactive
28	TCIRG1	1	-1.59	-1.51	-1.85	-1.4	inactive
29	TRIAP1	1	-0.9	-0.63	-1.22	-0.84	inactive
30	NADK2	1	-0.42	-0.08	-0.48	-0.7	inactive
31	MFHAS1	1	0.08	0	0.2	0.04	inactive
32	LOC338825 (retired record)	1	-0.91	-0.82	-0.93	-0.99	inactive
33	SGSM1	1	0.21	-0.08	0.3	0.41	inactive
34	LOC340893 (retired record)	1	1.63	1.26	1.37	2.25	inactive
35	TMEM33	1	-0.23	-0.65	-0.43	0.38	inactive
36	SUSD6	1	-1.26	-1.51	-1.22	-1.04	inactive
37	KLHL6	1	-0.77	-0.88	-1.08	-0.35	inactive
38	CD101	1	0.79	0.73	0.79	0.84	inactive
39	MCPH1	1	-0.58	-0.59	-0.75	-0.4	inactive
40	KCNG4	1	0.85	0.78	0.52	1.24	inactive
41	BCL9	1	1.89	2.3	1.63	1.72	inactive
42	INPP5J	1	1.46	1.53	1.55	1.31	inactive
43	HOXC10	1	1.71	1.63	1.91	1.59	inactive
44	SMAD3	1	0.39	0.34	0.32	0.5	inactive
45	SMAD3	2	-0.85	-0.89	-0.73	-0.92	inactive
46	LOC389055 (retired record)	1	-0.01	0	-0.21	0.19	inactive
47	LOC102724434	1	0.55	0.82	0.52	0.31	inactive
48	LOC729417 (retired record)	1	0.41	0.55	0.51	0.18	inactive
49	PCGF3	1	-1.33	-1.39	-1.18	-1.4	inactive
50	LOC100287740 (retired record)	1	-0.35	-0.5	-0.23	-0.33	inactive
51	GAL	1	0.21	0.26	0.15	0.23	inactive
52	LOC440895	1	-0.13	-0.23	-0.09	-0.08	inactive
53	GATD1	1	-0.15	-0.2	-0.29	0.03	inactive
54	LOC400475 (retired record)	1	-0.14	0.11	-0.67	0.15	inactive
55	LILRB1	1	0.97	0.82	1.11	0.98	inactive
56	GABRR3	1	-0.36	-0.52	-0.41	-0.16	inactive
57	USP6NL	1	0.59	0.48	0.84	0.45	inactive
58	LOC284798	1	-0.8	-0.64	-0.84	-0.93	inactive
59	FBXL2	1	1.93	1.64	2.06	2.08	inactive
60	MDGA2	1	0.84	0.64	0.94	0.95	inactive
61	LRRC37A4P	1	0.79	1.42	0.69	0.25	inactive
62	LOC285638	1	0.1	0.33	-0.06	0.02	inactive
63	IL4R	1	-0.98	-1.11	-0.8	-1.04	inactive
64	TMPO	1	0.25	0.29	0.17	0.28	inactive
65	IFNL2	1	0.74	0.81	0.64	0.77	inactive
66	TEX12	1	0.85	1.06	1.18	0.3	inactive
67	CBX4	1	-0.36	-0.44	-0.41	-0.24	inactive
68	SERPINA4	1	-0.48	-0.31	-0.47	-0.65	inactive
69	CFAP418	1	-1.76	-1.79	-1.8	-1.7	inactive
70	HEPACAM	1	-0.01	0.38	-0.39	-0.02	inactive
71	SMARCC1	1	0.57	0.63	0.61	0.47	inactive
72	ZAR1	1	1.73	2	1.7	1.48	inactive
73	THOC5	1	-1.59	-1.68	-1.39	-1.7	inactive

A few values from the entries so far:
Value of OR5H2 in “z-score, replicate B”: -0.34
Under “z-score, replicate B”, PCGF3 has -1.18
Under “Call”, KCNG4 has inactive
Entry for RLBP1 in “z-score, replicate B”: -1.24
Entry of SUSD6 in “Call”: inactive
Under “Call”, LOC285638 reads inactive
